Anti-infective test results gathered from many reports (values: NIAID ChemDB through PubChem).

Common to all: tests in culture; agent: Mycobacterium tuberculosis

"inactive" is the filed call at that dose; no cut-off is given.

smiles,mutations,read-out,read by,strain or isolate,dose,cell line,value
Cc1ccc2c(c1)c(N=NC(=S)Nc1ccc(Cl)cc1)c(O)n2C,-,EC50,broth dilution / resazurin,H37Rv,-,-,>100 µg/mL
S=C(NCN1CCOCC1)c1cncc(-n2ccnc2)n1,-,MIC,-,Capreomycin-resistant,-,-,500 µg/mL
CC1COc2c(N3CCN(C)CC3)c(F)cc3c(=O)c(C(=O)O)cn1c23,-,MIC50,-,22 isolates,-,-,1 µg/mL
Nc1c(S(=O)(=O)O)cc2cc(NC(=O)c3ccccc3)ccc2c1O,-,inhibition,BACTEC,H37Rv,6.25 µg/mL,-,0%
N=C(N)N1N=C(/C=C/c2ccccc2)CC1c1ccccc1,katG S315T isoniazid resistant,MIC,resazurin,RGH103,-,-,0.72 µM
O=C(CNc1ccccc1[N+](=O)[O-])Sc1nnc(-c2ccncc2)o1,-,inhibition,BACTEC / radiometric,H37Rv (ATCC 27294),0.0077 µM,-,92%
COc1ccccc1/C=N/N=C(\N)c1ccncc1,-,MIC,-,Isolate 1751 ofloxacin-resistant,-,-,64 µg/mL
O=C(NNc1ccc([N+](=O)[O-])cn1)Nc1cccc2ccccc12,-,MIC bound,BACTEC,H37Rv,-,-,>12.5 µg/mL
N/C(=N\N=C\c1ccccc1)c1ccncc1,-,MIC,-,H37Rv,-,-,16 µg/mL
CCOC(=O)Nc1cc(N(C)C(c2ccccc2)c2ccccc2)c([N+](=O)[O-])c(N)n1,-,inhibition,-,H37Rv,12.5 µg/mL,-,0%
NC(=O)c1ccc2oc3ccccc3c(=O)c2c1,-,inhibition,-,H37Rv,4 µg/mL,-,inactive
CCC1CCC(=NNC(=O)Cc2csc3nc(-c4ccc(Cl)cc4)cn23)CC1,-,inhibition,-,H37Rv,6.25 µg/mL,-,99%
NC(=S)c1cncc(-n2cncn2)n1,-,MIC,-,Capreomycin-resistant,-,-,125 µg/mL
COC(=O)c1cccc2oc3ccccc3c(=O)c12,-,inhibition,-,H37Rv,8 µg/mL,-,inactive
Cc1c(C#N)[nH]c2ccc(N3CCCC3)cc12,-,MIC90,resazurin,H37Rv,-,-,50 µM
Cc1nn(C(=O)c2ccncc2)c(C)c1N=Nc1ccc(Cl)cc1,-,MIC bound,BACTEC,H37Rv,-,-,>12.5 µg/mL
CC1CCC/C(=N\NC(=O)Cc2csc3nc(-c4ccc(Cl)cc4)cn23)C1,-,MIC,-,H37Rv,-,-,<6.25 µg/mL
CSc1nc(C(N)=O)c(N)s1,-,inhibition,BACTEC,H37Rv,12.5 µg/mL,-,6%
COc1ccccc1/C=C/C1=NN(C(=N)N)C(c2ccccc2OC)C1,katG S315T isoniazid resistant,MIC,resazurin,RGH103,-,-,>4.76 µM
CN1CCN(C2=NS(=O)(=O)c3cc(Cl)ccc3N2)CC1,-,MIC bound,resazurin,H37Rv,-,-,>6.25 µg/mL
COc1ccc(-c2cc(=O)c3ccc(F)cc3o2)cc1,-,inhibition,-,H37Rv,12.5 µg/mL,-,50%
COC(=O)c1cccc2c(=O)c3ccccc3oc12,-,inhibition,-,H37Rv,8 µg/mL,-,inactive
CN(C)c1ccc(NC2=C(Cl)C(=O)C(Nc3ccc(N(C)C)cc3)=C(Cl)C2=O)cc1,-,MIC bound,resazurin,H37Rv,-,-,>6.25 µg/mL
COc1ccc(/C=C/C(=O)c2c(O)cccc2OC)cc1,-,MIC,-,H37Rv,-,-,>12.5 µg/mL
O=C(CNc1ccccc1Cl)Sc1nnc(-c2ccncc2)o1,-,inhibition,BACTEC / radiometric,H37Rv (ATCC 27294),0.164 µM,-,12%
CC(C)OC(=O)N1CCN(c2ccc(CNC(=O)c3ccc([N+](=O)[O-])o3)cc2)CC1,-,MIC90,-,H37Rv,-,-,0.05 µg/mL
CCCCCC/C=C/CCCCCCCCCC1=CC(=O)C=C(OC)C1=O,-,MIC bound,BACTEC,H37Rv,-,-,≤128 µg/mL
O=C(Cc1csc2nc(-c3ccc(Cl)cc3)cn12)NN1C(=O)CSC12CCCCC2,-,MIC,-,H37Rv,-,-,>6.25 µg/mL
COc1ccc(-c2cc(=O)c3c(OC)cc(OC)c(I)c3o2)cc1,-,MIC,-,H37Rv,-,-,>12.5 µg/mL
N/C(=N\N=C\c1ccccc1Cl)c1ccncc1,-,MIC,-,Isolate 1751 ofloxacin-resistant,-,-,8 µg/mL
CC(/C=N/NC(=S)SCc1ccccc1)=N\NC(N)=S,-,MIC bound,resazurin,H37Rv,-,-,<6.25 µg/mL
CCOC(=O)Nc1cc(NCC(C)CN(C)c2ccccc2)cc(NC(=O)OCC)n1,-,inhibition,-,H37Rv,12.5 µg/mL,-,7%
Cc1ccc(-[n+]2c3cc(N)c(C)cc3nc3cc(C)c(Nc4ccccc4)cc32)cc1.O=S(=O)(O)O,-,MIC,BACTEC,H37Rv,-,-,>12.5 µg/mL
CCCCS(=O)(=O)Nc1ccc2[nH]c(C(=O)N(C)C)c(C)c2c1,-,MIC90,resazurin,H37Rv,-,-,6.25 µM
COC(=O)c1ccc2c(=O)c3ccccc3oc2c1,-,inhibition,-,H37Rv,32 µg/mL,-,inactive
O=c1cc(-c2cccc(I)c2)oc2ccccc12,-,MIC,-,H37Rv,-,-,>12.5 µg/mL
Oc1c(N=NC(=S)Nc2ccc(Cl)cc2)c2cc(OC(F)(F)F)ccc2n1CN1CCOCC1,-,EC50,broth dilution / resazurin,H37Rv,-,-,2.468 µg/mL
O=C(NCc1ccccc1Cl)c1ccc([N+](=O)[O-])s1,-,MIC90,-,H37Rv,-,-,25 µg/mL
O=C(O)c1ccc2oc(-c3ccccc3)cc(=O)c2c1,-,MIC,-,H37Rv,-,-,>12.5 µg/mL
CCC1CCC2(CC1)SC(C)C(=O)N2NC(=O)Cc1csc2nc(-c3ccccc3)cn12.O.O,-,EC50,-,H37Rv,-,VERO,<6.25 µg/mL
C=CCNC(=S)N=Nc1c(O)n(C)c2ccc(OC(F)(F)F)cc12,-,EC90,broth dilution / resazurin,H37Rv,-,-,>100 µg/mL
CCOc1cc(O)c(C(=O)/C=C/c2ccccc2)c(OCC)c1,-,MIC,-,H37Rv,-,-,>12.5 µg/mL
O=C(Cc1csc2nc(-c3ccc(Cl)cc3)cn12)NN=C1CCCCC1,-,inhibition,-,H37Rv,6.25 µg/mL,-,13%
O=c1[nH]c(=O)c2nccnc2[nH]1,-,MIC,BACTEC,H37Rv,-,-,≥12.8 µg/mL
CCCCC1Nc2cc(NC(=O)OCC)nc(N)c2N=C1C,-,EC50,-,H37Rv,-,-,<12.5 µg/mL
Oc1cc(Cl)ccc1Oc1ccc(Cl)cc1Cl,-,MIC,-,M290 (inhA promoter),-,-,60 µM
CC12CCC(C(NC(=S)S)C1=O)C2(C)C,-,inhibition,BACTEC,H37Rv,128 µg/mL,-,100%
CN(C(=O)c1ccc([N+](=O)[O-])o1)c1ccccc1,-,MIC90,-,H37Rv,-,-,6.25 µg/mL
CCOC(=O)[C@H]1[C@@]2(C(=O)OCC)n3ncc(C#N)c3N=C[C@@]12C(C)=O,-,MIC bound,resazurin,H37Rv,-,-,>6.25 µg/mL
O=C(CNc1ccccc1)Sc1nnc(-c2ccncc2)o1,-,inhibition,BACTEC / radiometric,H37Rv (ATCC 27294),0.0354 µM,-,64%
NC(=S)c1cncc(-n2ccnc2)n1,-,MIC,-,Ethionamide-resistant,-,-,500 µg/mL
CCCCS(=O)(=O)Nc1ccc2[nH]c(C(=O)NC3CCOCC3)c(C)c2c1,-,MIC90,resazurin,H37Rv,-,-,6.2 µM
Cn1cc([N+](=O)[O-])cc1C(=O)NCc1ccccn1,-,MIC90,-,H37Rv,-,-,>200 µg/mL
CCOC(=O)Nc1cc(Nc2ccc(Cl)cc2)c2ncc(C)nc2n1,-,EC50,-,H37Rv,-,-,>12.5 µg/mL
Cc1ccc2c(c1)c(N=NC(=S)Nc1ccc(F)cc1)c(O)n2C,-,EC50,broth dilution / resazurin,H37Rv,-,-,>100 µg/mL
N=C(N)N1N=C(/C=C/c2ccc(Cl)cc2)CC1c1ccc(Cl)cc1,-,MIC,resazurin,H37Rv,-,-,0.87 µM
NNC(=O)c1cccc(C(=O)NN)c1,-,MIC bound,BACTEC,H37Rv,-,-,>12.5 µg/mL
CCN(CC)c1nc2c(s1)c1c(O)c3c(O)c(C)c4c(c32)C(=O)[C@@](C)(O/C=C/[C@H](OC)[C@@H](C)[C@@H](OC(C)=O)[C@H](C)[C@H](O)[C@H](C)[C@@H](O)[C@@H](C)/C=C/C=C(/C)C(=O)N1)O4,-,MBC,-,1620-4,-,-,0.5 µg/mL
COc1ccc(C(=O)/C=C/c2ccncc2)cc1,-,MIC,-,H37Rv,-,-,>12.5 µg/mL
CC(C)OC(=O)c1cc[n+](CC(=O)c2ccccc2)cc1.[Br-],MDR,MIC,resazurin,-,-,-,2 µg/mL
COc1ccc(C(=O)/C=C/c2cccnc2)cc1,-,MIC,-,H37Rv,-,-,>12.5 µg/mL
CCCCS(=O)(=O)Nc1ccc2[nH]c(C(=O)NCc3cccc(C)c3)c(C)c2c1,-,MIC90,resazurin,H37Rv,-,-,>100 µM
COc1ccc(NC(=O)c2cc([N+](=O)[O-])cn2C)cc1,-,MIC90,-,H37Rv,-,-,>200 µg/mL
Cc1ccc2c(c1)c(N=NC(=S)Nc1ccccc1)c(O)n2C,-,EC90,broth dilution / resazurin,H37Rv,-,-,>100 µg/mL
O=C(O)c1cccc2oc3ccccc3c(=O)c12,-,inhibition,-,H37Rv,4 µg/mL,-,inactive
O=C(CNc1cccc(Cl)c1)Sc1nnc(-c2ccncc2)o1,-,inhibition,BACTEC / radiometric,H37Rv (ATCC 27294),0.1706 µM,-,32%
Cc1cc([N+](=O)[O-])cc2c(=O)c3ccccc3oc12,-,inhibition,-,H37Rv,16 µg/mL,-,inactive
CO[C@H]1/C=C/O[C@@]2(C)Oc3c(C)c(O)c4c(O)c(c(/C=N/N=C/N5CCCCC5)c(O)c4c3C2=O)NC(=O)/C(C)=C\C=C\[C@H](C)[C@H](O)[C@@H](C)[C@@H](O)[C@@H](C)[C@H](OC(C)=O)[C@@H]1C,-,MIC,-,Isolate S1,-,-,25 µg/mL
COc1ccc(-c2oc3ccccc3c(=O)c2O)cc1,-,MIC,-,H37Rv,-,-,>12.5 µg/mL
NNC(=O)N/N=C1\C(=O)N(c2ccc(Cl)c(Cl)c2)C(=O)C(=O)C1c1nc2ccccc2o1,-,inhibition,resazurin,H37Rv,6.25 µg/mL,-,5%
CNC(=S)N=Nc1c(O)[nH]c2ccc(C)cc12,-,EC50,broth dilution / resazurin,H37Rv,-,-,>100 µg/mL
CN(C)c1ccc(/C=c2\[nH]c(=O)/c(=C/c3ccc(N(C)C)cc3)[nH]c2=O)cc1,-,inhibition,BACTEC,H37Rv,12.5 µg/mL,-,30%
COc1cccc(NC(=O)c2ccc(S(C)=O)o2)c1,-,MIC90,-,H37Rv,-,-,200 µg/mL
Cc1ccc(/C=N/N=C(\N)c2ccncc2)c(C)c1,-,MIC,-,Isolate 1751 ofloxacin-resistant,-,-,16 µg/mL
CCCCS(=O)(=O)Nc1ccc2[nH]c(C(=O)NC3CCCC3)c(C)c2c1,-,MIC90,resazurin,H37Rv,-,-,6.25 µM
CC1CCCCN1c1cncc(C(=O)NN)n1,-,MIC,-,Ethionamide-resistant,-,-,125 µg/mL
CN[C@@H]1[C@@H](O)[C@@H](O[C@@H]2[C@@H](O)[C@H](O[C@H]3O[C@H](CN)CC[C@H]3N)[C@@H](N)C[C@H]2N)OC[C@]1(C)O,-,inhibition,-,H37Rv,2 µg/mL,-,inactive
NC(=O)c1ccncc1,-,MIC,resazurin,CF45,-,-,>25 µg/mL
COC(=O)c1cccc2c(=O)c3cc([N+](=O)[O-])ccc3oc12,-,inhibition,-,H37Rv,4 µg/mL,-,inactive
Cc1c2oc3c(C)ccc(C(=O)NCCN4CCN(c5ccccc5)CC4)c3nc-2c(C(=O)NCCN2CCN(c3ccccc3)CC2)c(N)c1=O,-,inhibition,BACTEC,H37Rv,12.5 µg/mL,-,-6%
O=C(Cc1csc2nc(-c3ccc(Cl)cc3)cn12)NN=C1CCCC1,-,MIC,-,H37Rv,-,-,<6.25 µg/mL
CC1CCCCN1c1cncc(C(N)=S)n1,-,MIC,-,Capreomycin-resistant,-,-,62.5 µg/mL
CCC1CC(C)C(O)/C=C/C=C/CC(C)OC(=O)CC(O)C(OC)C1O[C@@H]1O[C@H](C)C[C@@](O)(C(C)=O)[C@H]1O,-,MIC,BACTEC,H37Rv,-,-,≥12.5 µg/mL
Cc1ccc(NCC(=O)Sc2nnc(-c3ccncc3)o2)cc1,-,inhibition,BACTEC / radiometric,H37Rv (ATCC 27294),0.1133 µM,-,64%
CC(C)=CCC1=C(O)c2ccccc2C(=O)C1=O,-,inhibition,BACTEC,H37Rv,128 µg/mL,-,100%
CS(=O)(=O)c1ccc(CC(=O)c2ccc([N+](=O)[O-])o2)cc1,-,MIC90,-,H37Rv,-,-,1.17 µg/mL
CCOC(=O)/C(ON)=C(/CC/C(C(=O)OC)=C(\ON)C(=O)OCC)C(=O)OC,-,inhibition,BACTEC,H37Rv,12.5 µg/mL,-,0%
CCOC(=O)Nc1cc(NCCc2ccc(S(N)(=O)=O)cc2)c2nccnc2n1,-,EC50,-,H37Rv,-,-,>12.5 µg/mL
CC(=O)OC[C@H]1O[C@@H](n2c(C)c(N=Nc3ccccc3)c(C)c(C#N)c2=S)[C@H](OC(C)=O)[C@@H](OC(C)=O)[C@H]1OC(C)=O,-,MIC bound,resazurin,H37Rv,-,-,>6.25 µg/mL
O=C(CNc1cccc([N+](=O)[O-])c1)Sc1nnc(-c2ccncc2)o1,-,MIC99,broth dilution / resazurin,H37Rv (ATCC 27294),-,-,5.92 µg/mL

6 of the rows above, restated:

smiles | mutations | read-out | read by | strain or isolate | dose | cell line | value
COc1ccc(-c2cc(=O)c3c(OC)cc(OC)c(I)c3o2)cc1 | - | MIC | - | H37Rv | - | - | >12.5 µg/mL
C=CCNC(=S)N=Nc1c(O)n(C)c2ccc(OC(F)(F)F)cc12 | - | EC90 | broth dilution / resazurin | H37Rv | - | - | >100 µg/mL
COc1ccc(-c2cc(=O)c3ccc(F)cc3o2)cc1 | - | inhibition | - | H37Rv | 12.5 µg/mL | - | 50%
COc1cccc(NC(=O)c2ccc(S(C)=O)o2)c1 | - | MIC90 | - | H37Rv | - | - | 200 µg/mL
COc1ccc(/C=C/C(=O)c2c(O)cccc2OC)cc1 | - | MIC | - | H37Rv | - | - | >12.5 µg/mL
CCOC(=O)Nc1cc(NCC(C)CN(C)c2ccccc2)cc(NC(=O)OCC)n1 | - | inhibition | - | H37Rv | 12.5 µg/mL | - | 7%

Conditions beyond the fields shown may differ between rows. Inhibition is in % at the dose shown (toxicity tests: loss of growth or viability). MIC bound: limit read from a one-dose screen. An empty or dashed field is not shown. A number after MIC or MFC names an inhibition level or a share of isolates. ECn is the concentration giving n% inhibition of infection, replication or growth.